Assay results taken from US20230348447A1, “OXAZOLIDINONE COMPOUNDS, LIPOSOME COMPOSITIONS COMPRISING OXAZOLIDINONE COMPOUNDS AND METHOD OF USE THEREOF” (priority 2020, published 2023).

Test system: M. Tuberculosis Erdman or H37Rv vs VERO or HepG2 cells
Experiment: Selectivity Index (mammalian cell IC50 / bacterial MIC)
Set-up: species or system Mycobacterium tuberculosis

Row | Structure (SMILES) | Selectivity Index (SI) Erd/HepG2 | Selectivity Index (SI) Erd/VERO
1 | Cl.Cn1nnc(-c2ccc(-c3ccc(N4C[C@H](CNC(=O)CCN)OC4=O)cc3F)cn2)n1 [AKG-17] | 18.7 | >125
2 | Cl.Cn1nnc(-c2ccc(-c3ccc(N4C[C@H](CNC(=O)CCCN)OC4=O)cc3F)cn2)n1 [AKG-18] | 4.8 | >125
